# Reference: patent US10603701B2, “Bioremediation of 1,4-dioxane and chlorinated aliphatic hydrocarbons by propanotrophic bacteria” (New Jersey Institute of Technology, priority 2018, dated 2020)
# Tested on: Azoarcus sp. DD4
# Experiment: Cometabolism of CAHs by DD4 resting cells after being fed with propane
# Type: cell-based
# Settings: 0.13 mg protein mL^−1, 24 h, headspace GC
smiles,measurement,value
"Cl/C=C/Cl [trans-1,2-DCE]",cometabolism by DD4 resting cells after growth with propane,no degradation
